Results of unrelated studies side by side (data: NIAID ChemDB).

All rows: target-level tests

Blank or dashed fields: not listed here. Fold resistance: result on the changed form divided by that on wild type. ICn is the concentration giving n% inhibition. Lines come from different laboratories, so protocols vary. Inhibition is in % at the dose shown (toxicity tests: loss of growth or viability). Two numbers with a dash give a range or band.

SMILES	read by	organism	protein	tested at	mutations	endpoint	result
CSC[C@H](NC(=O)COc1cccc2cccnc12)C(=O)N[C@@H](Cc1ccccc1)[C@H](O)C(=O)N1CSC(C)(C)[C@H]1C(=O)NC(C)(C)C		HIV-1	Protease	0.05 µM		inhibition	90.5%
CC(C)=CCN1Cc2cccc3[nH]c(=S)n(c23)C[C@@H]1C	nucleotide incorporation	HIV	Reverse transcriptase		RT-W266S	IC50	>68 µM
Cn1[nH]c2ccn(Cc3cccc(Cl)c3)c(=O)c2c(=O)c1=O	ELISA	HIV-1	Integrase			IC50	0.1–1 µM
CS(=O)(=O)C[C@H](NC(=O)COc1cccc2ccccc12)C(=O)N[C@@H](Cc1ccccc1)[C@H](O)C(=O)N1CCC[C@H]1C(=O)Nc1ccc(O)cc1		HIV-1	Protease	5 µM		inhibition	>90%
Nc1ccn([C@@H]2CS[C@H](COP(=O)(O)OP(=O)(O)OP(=O)(O)O)O2)c(=O)n1	radiometric	HIV	Reverse transcriptase		RT-K103N	fold resistance	0.53
CC(C)(C)NC(=O)[C@@H]1CSCN1C(=O)[C@@H](O)[C@H](Cc1ccccc1)NC(=O)[C@H](CS(C)(=O)=O)NC(=O)c1cc2ccccc2o1		HIV-1	Protease	0.05 µM		inhibition	80.5%
COc1cc(Cl)cc(Cn2ccn3ccc(=O)c(O)c3c2=O)c1	ELISA	HIV-1	Integrase			IC50	0.01–0.1 µM
CC(C)(C)c1ccc(-n2nnnc2SCC(=O)Nc2ccc(OCC(=O)Nc3ccccc3C(=O)O)cc2Cl)c(Cl)c1	PicoGreen / fluorescence	HIV-1	Reverse transcriptase		RT-K103 Y181C	IC50	<1 µM
Cc1cccc(OCC(=O)N[C@@H](CC(N)=O)C(=O)N[C@@H](Cc2ccccc2)[C@H](O)C(=O)N2CSC(C)(C)[C@H]2C(=O)NC(C)(C)C)c1C		HIV-1	Protease	0.05 µM		inhibition	97.1%
O=C1c2c(O)c(=O)c(-c3nccs3)cn2CCN1Cc1ccc(Cl)cc1O	ELISA	HIV-1	Integrase			IC50	<0.01 µM
Cc1cc(C#CC(C)(C)C(=O)O)ccc1NC(=O)CSc1nnnn1-c1ccc(C(C)(C)C)cc1Cl	PicoGreen / fluorescence	HIV-1	Reverse transcriptase		RT-K103 Y181C	IC50	<1 µM
CC(C)(C)NC(=O)[C@@H]1C[C@@H](C2CCCCC2)CN1C(=O)[C@@H](O)[C@H](Cc1ccccc1)NC(=O)[C@H](CC(N)=O)NC(=O)OCc1ccccc1		HIV-1	Protease	0.05 µM		inhibition	0.5%
CC(CCN1CCn2cc(-c3nccs3)c(=O)c(O)c2C1=O)c1ccccc1	ELISA	HIV-1	Integrase			IC50	0.01–0.1 µM
CC[C@@H](C)[C@H](NC(=O)[C@@H]1CCCN1C(=O)[C@@H](O)[C@H](Cc1ccccc1)NC(=O)[C@H](CC(N)=O)NC(=O)OC(C)(C)C)C(=O)NCC1CCCCC1		HIV-1	Protease	5 µM		inhibition	48.1%
O=C1c2c(O)c(=O)c(-c3nccs3)cn2CCN1Cc1ccc(Cl)cc1	ELISA	HIV-1	Integrase			IC50	0.01–0.1 µM
Cn1cc(NC(=O)COc2ccc(NC(=O)CSc3nnnn3-c3ccc(C(C)(C)C)cc3Cl)c(Cl)c2)cc1C(=O)O	PicoGreen / fluorescence	HIV-1	Reverse transcriptase		RT-K103 Y181C	IC50	<1 µM
O=C1c2c(O)c(=O)c(-c3cnccn3)cn2CCN1Cc1ccc(Cl)c(Cl)c1	ELISA	HIV-1	Integrase			IC50	0.01–0.1 µM
O=C(CSc1nnnn1-c1cc(C(F)(F)F)ccc1Cl)Nc1ccc(-c2ccc(OCCN3CCCC3)cc2)c(F)c1Cl	PicoGreen / fluorescence	HIV-1	Reverse transcriptase		RT-K103 Y181C	IC50	<1 µM

Repeating the final 2 entries:

| SMILES | read by | organism | protein | tested at | mutations | endpoint | result |
|---|---|---|---|---|---|---|---|
| O=C1c2c(O)c(=O)c(-c3cnccn3)cn2CCN1Cc1ccc(Cl)c(Cl)c1 | ELISA | HIV-1 | Integrase |  |  | IC50 | 0.01–0.1 µM |
| O=C(CSc1nnnn1-c1cc(C(F)(F)F)ccc1Cl)Nc1ccc(-c2ccc(OCCN3CCCC3)cc2)c(F)c1Cl | PicoGreen / fluorescence | HIV-1 | Reverse transcriptase |  | RT-K103 Y181C | IC50 | <1 µM |